Anti-infective test results gathered from many reports (values: NIAID ChemDB through PubChem).

All rows: whole-cell or culture tests; organism: Mycobacterium tuberculosis

MIC bound comes from a single tested concentration. ECn: concentration that inhibits the pathogen or its effect by n%. Blank or dashed fields: not listed here. Two numbers with a dash give a range or band. Lines come from different laboratories, so protocols vary. Inhibition is in % at the dose shown (toxicity tests: loss of growth or viability). MIC50, MIC90 and the like: level of inhibition, or share of isolates inhibited.

compound | tested at | cells | endpoint | strain | changes | method | value
O=C(CSc1nnc(-c2ccccn2)s1)N/N=c1/scc(-c2ccc(Cl)cc2)n1-c1ccccc1 |  |  | MIC | Clinical isolate 190 |  |  | 40 µg/mL
Cc1cc(C2=NNC(c3ccco3)C2)ccc1O | 6.25 µg/mL |  | inhibition | H37Rv |  |  | 90%
CC(=O)c1c(C)c2c(C)cc3oc(=O)c(C(C)=O)c(C)c3c2oc1=O | 12.5 µg/mL |  | inhibition | H37Rv |  | BACTEC | 0%
O=C(c1ccc([N+](=O)[O-])o1)N1CCc2cc(N3CCN(Cc4ccccc4)CC3)ccc2C1 |  |  | MIC | UT29 |  |  | 0.024 µg/mL
CCn1c(SCC(=O)N/N=C/c2cccc([N+](=O)[O-])c2)nnc1-c1ccco1 |  |  | EC50 | H37Rv |  |  | >6.25 µg/mL
Cn1cc(NC(=O)c2cc(NC(=O)c3cccc(C(=O)Nc4cc(C(=O)Nc5cc(C(=O)NCCC(=N)N)n(C)c5)n(C)c4)c3)cn2C)cc1C(=O)NCCC(=N)N |  |  | MIC bound | H37Rv |  | BACTEC | >12.5 µg/mL
O=C(CN1CCN(c2cc3c(cc2F)c(=O)c(C(=O)O)cn3C2CC2)CC1)c1ccc(Br)cc1 |  | VERO | MIC | H37Rv |  |  | 0.78 µg/mL
COc1cc(CC#N)cc(Oc2ccc(C(=O)O)cc2)c1OC |  |  | MIC | H37Rv |  |  | 125–250 µg/mL
NC(=O)c1cnccn1 |  |  | MIC | M6733 |  |  | 30 µg/mL
CCOC(=O)c1cc(-c2ccc3cc(OC)ccc3c2)on1 |  |  | MIC | H37Rv |  | resazurin | 0.9 µM
CO[C@H]1/C=C/O[C@@]2(C)Oc3c(C)c(O)c4c(O)c(c5c(c4c3C2=O)NC2(CCN(CC(C)C)CC2)N=5)=NC(=O)/C(C)=C\C=C\[C@H](C)[C@H](O)[C@@H](C)[C@@H](O)[C@@H](C)[C@H](OC(C)=O)[C@@H]1C |  |  | MIC | H37RV (RIF-S) |  |  | 0.06 µg/mL
CCn1c(SCC(=O)N/N=C/C=C/c2ccc([N+](=O)[O-])o2)nnc1-c1ccco1 | 6.25 µg/mL |  | inhibition | H37Rv |  |  | 61%
CCN(CC)C(=S)S[Se](SC(=S)N(CC)CC)(SC(=S)N(CC)CC)SC(=S)N(CC)CC |  |  | MIC | RMP-R |  |  | 0.8 µg/mL
CCn1cc(C(=O)O)c(=O)c2cc(F)c(N3CCN(CC(=O)c4ccccc4)CC3)nc21 |  |  | MIC | H37Rv |  |  | >6.25 µg/mL
CCOC(=O)c1cc(-c2cccc(N)c2)on1 |  |  | MIC | H37Rv |  | low oxygen | 41.5 µM
O=C(O)c1cn(C2CC2)c2cc(N3CCN(C/C(=N/O)c4ccc(Br)cc4)CC3)c(F)cc2c1=O |  |  | MIC | H37Rv |  |  | >6.25 µg/mL
CCOC(=O)c1cc(-c2cccc(C)c2)on1 |  |  | MIC | H37Rv |  | low oxygen | 25.1 µM
Cc1ccc2c(c1)nc1cc(Nc3ccc(Cl)cc3)c(=NC3CCCCCCC3)cc-1n2-c1ccc(Cl)cc1 |  |  | MIC | H37Rv (RFP-resistant) |  |  | 0.2 µg/mL
O=C(CSc1nnc(-c2ccccn2)s1)N/N=c1/scc(-c2ccccc2)n1-c1ccccc1Br |  |  | MIC | Clinical isolate 180 |  |  | 80 µg/mL
CCCc1c2c([nH]c(=O)c1C)C(=O)c1[nH]c(=O)c(C)c(CCC)c1C2=O |  |  | MIC90 | H37Rv | Isoniazid-resistant | resazurin / fluorescence | 0.13 µg/mL
CCCc1ncc(C(N)=O)nc1SCC |  |  | MIC | H37Rv |  |  | >12.5 µg/mL
CCn1cc(C(=O)O)c(=O)c2cc(F)c(N3CCN(C/C(=N/O)c4ccccc4)CC3)nc21 |  |  | MIC | H37Rv |  |  | >6.25 µg/mL
O=C1C2C3CCC(O3)C2C(=O)N1c1nc2c(ccc3ccccc32)s1 |  |  | MIC bound | H37Rv |  | resazurin | >6.25 µg/mL
CCOC(=O)c1cc(CNc2cccc(OC)c2)on1 |  |  | MIC | H37Rv |  | low oxygen | 126 µM
CCn1cc(C(=O)O)c(=O)c2cc(F)c(N3CCN(C/C(=N/O)c4ccc(Br)cc4)CC3)cc21 |  |  | MIC | H37Rv |  |  | >6.25 µg/mL
CN[C@@H]1[C@H](O[C@H]2[C@H](O[C@H]3[C@H](O)[C@@H](O)[C@H](N=C(N)N)[C@@H](O)[C@@H]3N=C(N)N)O[C@@H](C)[C@]2(O)C=O)O[C@@H](CO)[C@H](O)[C@H]1O |  |  | MIC80 | 12119 | Ofloxacin-resistant | broth dilution | 0.3 µM
CCCc1ncc(C(N)=S)nc1Sc1ccccc1 |  |  | MIC | H37Rv |  |  | >12.5 µg/mL
O=C(O)c1cn(C2CC2F)c2c(Cl)c(N3CC4CCCNC4C3)c(F)cc2c1=O |  |  | MIC | 71 (RFP-resistant) |  |  | 0.1 µg/mL
CC(C)Cc1ncc(C(N)=S)nc1Sc1ccccc1 | 12.5 µg/mL |  | inhibition | H37Rv |  |  | 78%
OC(CCl)c1ccc2ccc3c(c2c1)Nc1ccccc1S3 |  |  | MIC bound | H37Rv |  | BACTEC | ≤12.5 µg/mL
CCOC(=O)c1cc(CNc2ccc(OC(F)(F)F)cc2)on1 |  |  | MIC | H37Rv |  | low oxygen | 9.8 µM
Cc1cc2c(c3c1c(=O)c1ccccc1n3C)C=CC(C)(C)O2 |  |  | MIC | H37Rv |  |  | 12.5 µg/mL
O=[N+]([O-])c1ccc2nc(/C=C/c3ccc4c(c3)OCO4)[nH]c2c1 |  |  | MIC | H37Rv (ATCC 27294) |  | resazurin | >7.25 µg/mL
O=[N+]([O-])c1ccc(C2=NOC(c3ccc(N4CCN(Cc5ccccc5)CC4)cc3)C2)o1 |  |  | MIC | UT15 |  |  | 0.0008 µg/mL
CCCSc1nc(C(N)=O)cnc1CCC |  |  | MIC | H37Rv |  |  | >12.5 µg/mL
CCn1c(SCC(=O)N/N=C/c2cccc(OC)c2)nnc1-c1ccco1 |  |  | EC50 | H37Rv |  |  | >6.25 µg/mL
CC1=NC(C(=O)c2ccccc2)C(=O)O1 | 12.5 µg/mL |  | inhibition | H37Rv |  | BACTEC | -4%
COc1cc(/C=C/C(=O)c2ccc(O)c(C)c2)cc(OC)c1OC | 6.25 µg/mL |  | inhibition | H37Rv |  |  | 77%
CCOC(=O)c1cc(CNc2cc(OC)cc(OC)c2)on1 |  |  | MIC | H37Rv |  | resazurin | 31.4 µM
COc1cc(C=O)cc(Oc2ccc(C=O)c([N+](=O)[O-])c2)c1O |  |  | MIC | H37Rv |  |  | 250–500 µg/mL
O=NNc1ccc2cccnc2n1 |  |  | MIC | H37Rv |  | BACTEC | ≥12.5 µg/mL
COc1ccc(C2CC(c3ccc(O)c(C)c3)=NN2)cc1OC | 6.25 µg/mL |  | inhibition | H37Rv |  |  | 78%
CO/C(=N\N=C\c1cc(OC)ccc1OC)c1ccncc1 | 0.5 µM |  | inhibition |  |  | BACTEC | 0%
CCn1cc(C(=O)O)c(=O)c2cc(F)c(N3CCN(C/C(=N/O)c4ccc(C)cc4)CC3)cc21 | 6.25 µg/mL |  | inhibition | H37Rv |  |  | 13%
CN(C)C1=CC(=O)C(=O)c2ncccc21 | 6.25 µg/mL |  | inhibition | H37Rv |  |  | 8%
COc1ccc(/C=C/c2nc3ccc(Br)cc3[nH]2)cc1OC |  |  | MIC | H37Rv (ATCC 27294) |  | resazurin | >7.25 µg/mL
Cc1c2ccncc2c(C)c2c1sc1ccccc12 |  | VERO | MIC | H37Rv |  | resazurin | 0.78 µg/mL
COC(=O)Cc1cc([N+](=O)[O-])c(Oc2cc(/C=C/[N+](=O)[O-])cc(OC)c2O)c([N+](=O)[O-])c1 |  |  | MIC | H37Rv |  |  | 15.6–52.5 µg/mL
CCCSc1nc(C(N)=O)cnc1C(C)(C)C | 12.5 µg/mL |  | inhibition | H37Rv |  |  | <90%
CCn1cc(C(=O)O)c(=O)c2cc(F)c(N3CCN(CC(=O)c4ccc(OC)cc4)CC3)cc21 |  |  | EC50 | H37Rv |  |  | >6.25 µg/mL
COc1ccc2ccc3oc(=O)c(C)cc3c2c1 | 6.25 µg/mL |  | inhibition | H37Rv |  | BACTEC | 36%
NC[C@H]1O[C@H](O[C@H]2[C@H](O)[C@@H](O[C@H]3O[C@H](CO)[C@@H](O)[C@H](N)[C@H]3O)[C@H](N)C[C@@H]2N)[C@H](O)[C@@H](O)[C@@H]1O |  |  | MIC90 | H37Rv |  | resazurin / fluorescence | 0.65 µg/mL
COC(=O)c1cc(Nc2ccc(O)c3c2C(=O)c2c([N+](=O)[O-])ccc(O)c2C3=O)cc(C(=O)OC)c1 |  |  | MIC bound | H37Rv |  | BACTEC | >12.5 µg/mL
Cc1cccc(-c2cs/c(=N/NC(=O)CSc3nnc(-c4ccccn4)s3)n2-c2ccccc2)c1 |  |  | MIC | Clinical isolate 180 |  |  | 20 µg/mL
O=C(O)Cc1ccc(-n2nnc3c(=O)[nH][nH]c(=O)c32)cc1 |  |  | MIC bound | H37Rv |  | BACTEC | >12.5 µg/mL
CC1COc2c(N3CCN(C)CC3)c(F)cc3c(=O)c(C(=O)O)cn1c23 |  |  | MIC80 | ATCC 27294 |  | broth dilution | 0.7 µM
CCC1CN(c2c(F)cc3c(=O)c(C(=O)O)cn([C@@H]4C[C@@H]4F)c3c2OC)CCN1 |  |  | MIC | 56 (RFP-resistant) |  |  | 64 µg/mL
Cc1cc(C2=NNC(c3ccc(F)cc3)C2)ccc1O | 6.25 µg/mL |  | inhibition | H37Rv |  |  | 85%
O=[N+]([O-])c1ccc2nc(/C=C/c3ccc(Cl)cc3Cl)[nH]c2c1 |  |  | MIC | H37Rv (ATCC 27294) |  | resazurin | >7.25 µg/mL
O=C(CSc1nnc(-c2ccccn2)s1)N/N=c1/scc(-c2ccccc2Br)n1-c1ccccc1 |  |  | MIC | H37Rv |  |  | 80 µg/mL
CCCCc1ncc(C(N)=S)nc1Sc1ccccc1 |  |  | MIC | H37Rv |  |  | <6.25 µg/mL
COc1ccccc1Oc1ccc(/C=N/NC(N)=O)cc1[N+](=O)[O-] |  |  | MIC | H37Rv |  |  | 125–250 µg/mL
NC1CN(c2c(F)cc3c(=O)c(C(=O)O)cn(C4CC4)c3c2Cl)CC12CC2 |  |  | MIC | 50 (RFP-resistant) |  |  | 0.78 µg/mL
CCOC(=O)C(=O)C1CC(c2ccccc2)=NNC1=O | 6.25 µg/mL |  | inhibition | H37Rv |  | resazurin | 3%
CCCCSc1nc(C(N)=O)cnc1CCC |  |  | MIC | H37Rv |  |  | >12.5 µg/mL
OC1(c2cccc(Cl)c2)C2=NCCCN2c2ccccc21 | 6.25 µg/mL |  | inhibition | H37Rv |  | resazurin | 33%
Cc1cc(C(=O)/C=C/c2c(Cl)cccc2Cl)ccc1O |  |  | MIC | H37Rv |  |  | 6.25 µg/mL
Cc1ccc(/C=C/c2nc3ccc([N+](=O)[O-])cc3[nH]2)cc1 |  |  | MIC | H37Rv (ATCC 27294) |  | resazurin | >7.25 µg/mL
N=C(N)Sc1cc(O)c(O)c2ccccc12 | 6.25 µg/mL |  | inhibition | H37Rv |  | resazurin | -5%
NNC(=O)c1ccncc1 |  |  | MIC80 | ATCC 27294 |  | broth dilution | 0.2 µM
O=c1[nH]c2ccccc2c(=O)n1CCCCCCN1CCN(c2cccc(Cl)c2)CC1 | 6.25 µg/mL |  | inhibition | H37Rv |  | resazurin | 75%
COc1cc(C2CC(c3ccc(O)c(C)c3)=NN2)cc(OC)c1OC |  |  | MIC | H37Rv |  |  | >6.25 µg/mL
CCOC(=O)/C=C1/SC(C)(C)[C@H]1NC(=O)OCc1ccccc1 | 6.25 µg/mL |  | inhibition | H37Rv |  | resazurin | -39%
CCOC(=O)c1cc(CNc2ccc(OC)nc2)on1 |  |  | MIC | H37Rv |  | resazurin | 39.6 µM
Cc1ccccc1-c1cs/c(=N/NC(=O)CSc2nnc(-c3ccccn3)s2)n1-c1ccccc1 |  |  | MIC | Clinical isolate 180 |  |  | >80 µg/mL
CCOC(=O)c1cc(-c2ccc(OC(F)(F)F)cc2)on1 |  |  | MIC | H37Rv |  | resazurin | 2.2 µM
CCn1c(SCC(=O)N/N=C/c2ccc(OC)cc2)nnc1-c1ccco1 |  |  | MIC | H37Rv |  |  | >6.25 µg/mL
CC(=O)Oc1ccc(/C=C2\N=C(c3ccccc3)OC2=O)cc1Oc1ccc(/C=C2\N=C(c3ccccc3)OC2=O)cc1[N+](=O)[O-] |  |  | MIC | H37Rv |  |  | 62.5–125 µg/mL
CN[C@@H]1[C@H](O[C@H]2[C@H](O[C@H]3[C@H](O)[C@@H](O)[C@H](N=C(N)N)[C@@H](O)[C@@H]3N=C(N)N)O[C@@H](C)[C@]2(O)C=O)O[C@@H](CO)[C@H](O)[C@H]1O |  |  | MIC90 | H37Rv | Isoniazid-resistant | resazurin / fluorescence | 0.46 µg/mL
Cc1ccc2[nH]c3c(c2c1)[n+]([O-])c1ccccc1[n+]3[O-] | 6.25 µg/mL |  | inhibition | H37Rv |  | resazurin | 100%
O=[N+]([O-])c1cn2c(n1)OC[C@@H](OCc1ccc(OC(F)(F)F)cc1)C2 |  |  | MIC | UT30 |  |  | 0.024 µg/mL
CCOC(=O)c1cc(CNc2ccc(C(F)(F)F)cc2)on1 |  |  | MIC | H37Rv |  | low oxygen | 9 µM